Consider 6 compounds from ChEMBL document CHEMBL4834431, “Design of Dimeric Bile Acid Derivatives as Potent and Selective Human NTCP Inhibitors” (J Med Chem, 2021).

SMILES strings stand for the structures. Calls of active or inactive are those of the source. The rule behind the calls is not given here.

The assay concerns Vesicular stomatitis virus. Nature of the assay: Antiviral activity against VSV infected in human HepG2-NTCP cells assessed as reduction in HBeAg and HBsAg secretion at 1 uM incubated for 24 hrs followed by replacement with fresh medium and measured at day 5 post infection by ELISA. Background: An ELISA detects its analyte on a solid surface through an enzyme-linked reagent.

Regarding `C[C@H](CCCN(CC[C@@H](C)[C@H]1CC[C@H]2[C@@H]3[C@@H](O)C[C@@H]4C[C@H](O)CC[C@]4(C)[C@H]3CC[C@]12C)CCS(=O)(=O)O)[C@H]1CC[C@H]2[C@@H]3[C@@H](O)C[C@@H]4C[C@H](O)CC[C@]4(C)[C@H]3CC[C@]12C`, the result was inactive.

Consider `C[C@@H]1CCC(=O)NCCNC(=O)CC[C@@H](C)[C@H]2CC[C@H]3[C@@H]4[C@@H](O)C[C@@H]5C[C@@H](CC[C@]5(C)[C@H]4CC[C@]23C)NC(=O)CCCC(=O)N[C@@H]2CC[C@@]3(C)[C@@H](C2)C[C@H](O)[C@@H]2[C@@H]3CC[C@]3(C)[C@@H]1CC[C@@H]23`, for which the outcome was inactive.

With `C[C@H](CCC(=O)NCCS(=O)(=O)O)[C@H]1CC[C@H]2[C@@H]3[C@@H](O)C[C@@H]4C[C@H](NC(=O)CCCC(=O)N[C@@H]5CC[C@@]6(C)[C@@H](C5)C[C@H](O)[C@@H]5[C@@H]6CC[C@]6(C)[C@@H]([C@H](C)CCC(=O)NCCS(=O)(=O)O)CC[C@@H]56)CC[C@]4(C)[C@H]3CC[C@]12C`, the result was inactive.

For `C[C@H](CCC(=O)NCCS(=O)(=O)O)[C@H]1CC[C@H]2[C@@H]3[C@@H](O)C[C@@H]4C[C@H](OC(=O)CCCC(=O)O[C@@H]5CC[C@@]6(C)[C@@H](C5)C[C@H](O)[C@@H]5[C@@H]6CC[C@]6(C)[C@@H]([C@H](C)CCC(=O)NCCS(=O)(=O)O)CC[C@@H]56)CC[C@]4(C)[C@H]3CC[C@]12C`, the result was inactive.

As for `C[C@H](CCC(=O)NCCS(=O)(=O)O)[C@H]1CC[C@H]2[C@@H]3[C@@H](O)C[C@@H]4C[C@H](OCc5cn([C@@H]6CC[C@@]7(C)[C@@H](C6)C[C@H](O)[C@@H]6[C@@H]7CC[C@]7(C)[C@@H]([C@H](C)CCC(=O)NCCS(=O)(=O)O)CC[C@@H]67)nn5)CC[C@]4(C)[C@H]3CC[C@]12C`, the outcome was inactive.

For `C[C@H](CCC(=O)O[C@@H]1CC[C@@]2(C)[C@@H](C1)C[C@H](O)[C@@H]1[C@@H]2CC[C@]2(C)[C@@H]([C@H](C)CCC(=O)NCCS(=O)(=O)O)CC[C@@H]12)[C@H]1CC[C@H]2[C@@H]3[C@@H](O)C[C@@H]4C[C@H](O)CC[C@]4(C)[C@H]3CC[C@]12C`, the result was inactive.
